This note sets out measurements from US20140308291A1 (INTEGRATED BIOTHERAPEUTICS, published 2014).

For assay [1], the target named is T1, wild-type LukF-PV (mature, N-terminal 6xHis tag) (Staphylococcus aureus).
T1 chain: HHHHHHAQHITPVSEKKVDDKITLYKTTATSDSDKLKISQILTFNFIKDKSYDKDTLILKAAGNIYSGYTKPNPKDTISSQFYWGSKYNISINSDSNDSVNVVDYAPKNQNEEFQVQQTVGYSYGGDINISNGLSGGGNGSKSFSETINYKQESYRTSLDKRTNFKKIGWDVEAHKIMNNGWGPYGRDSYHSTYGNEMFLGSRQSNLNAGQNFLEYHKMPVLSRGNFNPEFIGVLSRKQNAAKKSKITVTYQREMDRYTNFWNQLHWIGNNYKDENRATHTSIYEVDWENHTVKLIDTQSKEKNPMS
The assay can be described thus: MPD-based oligomerization assay (40% MPD, 24 hours), SDS-PAGE without boiling.

Assay [2] concerns the target T2, LukF-PV mutant K102A (Mut1) (Staphylococcus aureus).
T2 chain: T1 chain with K108A
Described as above.

Residue numbers refer to the chain shown, from its start. In names and notes the source's numbering stands.

B1: LukS-PV triple mutant T28F/K97A/S209A (Mut9) (other)
chain: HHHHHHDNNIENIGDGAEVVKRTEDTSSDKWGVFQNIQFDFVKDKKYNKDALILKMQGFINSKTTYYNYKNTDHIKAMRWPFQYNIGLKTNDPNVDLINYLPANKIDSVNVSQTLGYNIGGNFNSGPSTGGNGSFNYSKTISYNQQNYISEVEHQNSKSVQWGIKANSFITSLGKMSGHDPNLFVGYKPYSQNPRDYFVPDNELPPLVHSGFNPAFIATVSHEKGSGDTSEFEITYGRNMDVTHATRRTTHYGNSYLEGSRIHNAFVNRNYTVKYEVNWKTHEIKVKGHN
B1: the binding result in assay [1] and in assay [2] was “no binding” throughout.
